Anti-infective test results gathered from many reports (values: NIAID ChemDB through PubChem).

All rows: tests in culture; agent: HIV-1; cells: CEM; read-out: EC50

Lines come from different laboratories, so protocols vary. ECn is the concentration giving n% inhibition of infection, replication or growth.

Cc1cn([C@@H]2O[C@H](CO[Si](C)(C)C(C)(C)C)[C@@H](O)[C@H]2O[Si](C)(C)C(C)(C)C)c(=O)n(CCO)c1=O ; strain or isolate: IIIB ; read by: syncytia ; value: >50 µM
CCOCn1c(Sc2ccccc2)c(CC)c(=O)[nH]c1=S ; strain or isolate: IIIB HEPT-resistant (RT Y188H) ; mutations: RT-Y188H ; read by: syncytia ; value: ≥20 µg/mL
Cc1ccnc2c1NC(=O)c1cccnc1N2C1CC1 ; mutations: RT-E138K ; read by: cytopathic effect ; value: 0.044 µM
COc1cccc(C[C@H](NC(=O)c2cccc(O)c2C)[C@H](O)C(=O)N2CSC(C)(C)[C@H]2C(=O)NCc2c(C)cccc2C)c1 ; strain or isolate: IIIB ; read by: cytopathic effect / XTT ; conditions: 15% FBS ; value: 0.0024 µM
Cc1cn([C@@H]2O[C@H](CO[Si](C)(C)C(C)(C)C)[C@@H](O)[C@H]2O[Si](C)(C)C(C)(C)C)c(=O)n(CC(=O)ON)c1=O ; strain or isolate: IIIB ; read by: syncytia ; value: >2 µM
Cc1cn([C@@H]2O[C@H](CO[Si](C)(C)C(C)(C)C)C3(OS(=O)(=O)C=C3N)[C@H]2O[Si](C)(C)C(C)(C)C)c(=O)n(C)c1=O ; strain or isolate: IIIB E-EBU(RT-Y181C) ; mutations: RT-Y181C ; read by: syncytia ; value: >50 µg/mL
CC(=O)Nc1ccc(/C=C/c2ccc3ccc(C(=O)O)c(O)c3n2)cc1 ; read by: ELISA ; value: >47 µM
Cc1cn([C@H]2C[C@H](N=[N+]=[N-])[C@@H](CO[Si](C)(C)C(C)(C)C)O2)c(=O)n(CC(=O)O)c1=O ; strain or isolate: IIIB ; read by: syncytia ; value: >50 µM
Cc1cc(C)nc(N2C(=O)CSC2c2c(Cl)cccc2Cl)n1 ; mutations: RT-L100I ; read by: cytopathic effect ; value: 0.23 µM
Cc1cccc(C)c1CNC(=O)[C@H]1N(C(=O)[C@@H](O)[C@H](Cc2ccc3c(c2)OCO3)NC(=O)c2cccc(O)c2C)CSC1(C)C ; strain or isolate: IIIB ; read by: cytopathic effect / XTT ; conditions: 50% human serum ; value: 0.014 µM
CCc1cc(NCc2nc3c(Cl)ccc(Cl)c3o2)c(=O)[nH]c1C ; strain or isolate: IIIB ; mutations: RT-Y181C ; read by: syncytia ; value: 10 µM
CCNc1cccnc1N1CCN(C(=O)c2cc3cc(OC)ccc3[nH]2)CC1 ; strain or isolate: IIIB ; read by: syncytia ; value: 0.02 µg/mL
CCc1cn([C@@H]2O[C@H](CO[Si](C)(C)C(C)(C)C)[C@@H](O)[C@H]2O[Si](C)(C)C(C)(C)C)c(=O)n(CC(=O)O)c1=O ; strain or isolate: IIIB ; read by: syncytia ; value: 2 µM
CC(C)=CCN1Cc2cc(Cl)cc3[nH]c(=S)n(c23)C[C@@H]1C ; strain or isolate: IIIB TIBO R82913-resistant (RT K103N) ; mutations: RT-K103N ; read by: syncytia ; value: 4.3 µg/mL
Fc1cccc(F)c1C1SCc2nc3ccccc3n21 ; mutations: RT-Y188H ; read by: cytopathic effect ; value: 4.16 µM
CCOCn1c(Cc2cc(C)cc(C)c2)c(CC)c(=O)[nH]c1=O ; strain or isolate: IIIB PYR(RT-Y181C) ; mutations: RT-Y181C ; read by: syncytia ; value: 0.37 µg/mL
Nc1cc(OCCOCP(=O)(O)O)nc(N)n1 ; strain or isolate: Clinical isolate C19 ; mutations: RT-M41L V118I L210W T215Y ; read by: syncytia ; value: 7 µg/mL
Cc1cn([C@@H]2O[C@H](CO[Si](C)(C)C(C)(C)C)[C@@H](O[Si](C)(C)C(C)(C)C)[C@H]2O)c(=O)n(CC(=O)ON)c1=O ; strain or isolate: IIIB ; read by: syncytia ; value: >2 µM
CCOCn1c(Sc2ccccc2)c(CC)c(=O)[nH]c1=O ; strain or isolate: IIIB ; mutations: RT-C181I ; read by: syncytia ; value: 0.97 µM
COc1cc(C)nc(N2C(=O)CSC2c2c(Cl)cccc2Cl)n1 ; strain or isolate: IIIB ; read by: cytopathic effect ; value: 0.041 µM
C[C@H](COc1cc(N)nc(N)n1)OCP(=O)(O)O ; strain or isolate: Clinical isolate HA20.17 ; mutations: RT-A62V V75I F77L Q151M M184V ; read by: syncytia ; value: 4.35 µg/mL
Cc1cn([C@H]2C[C@H](N=[N+]=[N-])[C@@H](CO)O2)c(=O)[nH]c1=O ; mutations: RT-K103N ; read by: cytopathic effect ; value: 0.011 µM
CC(C)=CCN1Cc2cc(Cl)cc3[nH]c(=S)n(c23)C[C@@H]1C ; strain or isolate: IIIB ; mutations: RT-E138K ; read by: syncytia ; value: 0.25 µM
O=C(O)c1ccc2ccc(CCc3ccc(O)c(O)c3)nc2c1O ; read by: ELISA ; value: >61 µM
Cc1cn([C@@H]2O[C@H](CO[Si](C)(C)C(C)(C)C)C3(OS(=O)(=O)C=C3N)[C@H]2O[Si](C)(C)C(C)(C)C)c(=O)n(C)c1=O ; strain or isolate: IIIB ; read by: syncytia ; value: 0.05 µM
Cc1ccccc1CNC(=O)[C@H]1N(C(=O)[C@@H](O)[C@H](Cc2ccccc2)NC(=O)c2cccc(O)c2C)CSC1(C)C ; strain or isolate: IIIB ; read by: cytopathic effect / XTT ; conditions: 15% FBS ; value: 0.026 µM
C[C@H](Cn1cnc2c(N)ncnc21)OCP(=O)(O)O ; strain or isolate: Clinical isolate HA20.17 ; mutations: RT-A62V V75I F77L Q151M M184V ; read by: syncytia ; value: 12.5 µg/mL
Cc1ccccc1CNC(=O)[C@H]1N(C(=O)[C@@H](O)[C@H](Cc2ccc(OC(C)C)cc2)NC(=O)c2cccc(O)c2C)CSC1(C)C ; strain or isolate: IIIB ; read by: cytopathic effect / XTT ; conditions: 15% FBS ; value: 0.0079 µM
Cc1ccnc(N2C(=O)CSC2c2c(Cl)cccc2Cl)n1 ; mutations: RT-K103N ; read by: cytopathic effect ; value: 17.9 µM
Cc1c(N)nc(N)nc1OCCOCP(=O)(O)O ; strain or isolate: Clinical isolate L6.5 ; mutations: RT-S68G K70T V75I F77L K103N F116Y Q151M K219R ; read by: syncytia ; value: 0.25 µg/mL
Cc1ccccc1CNC(=O)[C@H]1N(C(=O)[C@@H](O)[C@H](Cc2ccc3c(c2)OCO3)NC(=O)c2cccc(O)c2C)CSC1(C)C ; strain or isolate: IIIB ; read by: cytopathic effect / XTT ; conditions: 15% FBS ; value: 0.0048 µM
O=C(O)c1ccc2ccc(/C=C/c3ccccc3)nc2c1O ; read by: ELISA ; value: >31 µM

Repeating the first 4 entries:

{"compound": "Cc1cn([C@@H]2O[C@H](CO[Si](C)(C)C(C)(C)C)[C@@H](O)[C@H]2O[Si](C)(C)C(C)(C)C)c(=O)n(CCO)c1=O", "strain or isolate": "IIIB", "read by": "syncytia", "value": ">50 µM"}
{"compound": "CCOCn1c(Sc2ccccc2)c(CC)c(=O)[nH]c1=S", "strain or isolate": "IIIB HEPT-resistant (RT Y188H)", "mutations": "RT-Y188H", "read by": "syncytia", "value": "≥20 µg/mL"}
{"compound": "Cc1ccnc2c1NC(=O)c1cccnc1N2C1CC1", "mutations": "RT-E138K", "read by": "cytopathic effect", "value": "0.044 µM"}
{"compound": "COc1cccc(C[C@H](NC(=O)c2cccc(O)c2C)[C@H](O)C(=O)N2CSC(C)(C)[C@H]2C(=O)NCc2c(C)cccc2C)c1", "strain or isolate": "IIIB", "read by": "cytopathic effect / XTT", "conditions": "15% FBS", "value": "0.0024 µM"}